# Data as given in the supplement of paper PMC9931576.
# Numbering of substitutions follows the chain as printed. Human monoclonal antibodies against the spike receptor-binding domain (heavy:light variable regions). IC50 against pseudoviruses bearing the spike of naturally observed variants; lower = stronger; >10 µg/ml means not reached at the top dose. No active / inactive call. The stated detection limit is 0.0005 µg/ml; values near or below 0.001 µg/ml lie at the floor of the assay.
# B1: BD56-1256 (protein)
# chain 1: QAQLVESGGGVLQPGRSLRLSCVASRLTFSAYGMHWVRQAPGKGLEWVAVISSDGRNKYYADSVKGRFSISRDNSKNTLYLQMNSLRAEDAAVYYCARLLGYYDGSGYFGNEYWGQGTLVTVSS
# chain 2: QSALTQPASVSGSPGQSITISCTGTSSDVGGYNFVSWYQQHPGKAPKLMIYDVSDRPSGVSNRFSGSKSGNTASLAISGLQAEDEADYYCSSYTISSTVVFGGGTKLTVL
# B2: BD56-1274 (protein)
# chain 1: EVQLVESGGGLVQPGRSLTLSCAASGFTFDDYAMHWVRQAPGKGLEWVSGISWNSGTIGYADSVQGRFIISRDNAKNSLFLHMRSLRAEDTALYYCAKDIRGIMIDDTIYGMDVWGQGTTVTVSS
# chain 2: B1 chain 2 with G31N, F34Y, S54N, D55K, V60I, A76T, I95S, S96T, T98I, V100I
# B3: BD56-1253 (protein)
# chain 1: EVQLVESGGGLIQPGGSLRLSCVASGFSVSNNYMTWVRQAPGKGLEWVSVIYSDGTTYYTDSVKGRYIISRDNSKNTLYLQMNRLRAEDTAVYYCVCSWYYDFLTGYYGFDYWGQGTLVTVSS
# chain 2: QAVVTQEPSLTVSPGGTVTLTCGSSTGPVTSGHYPYWFQQKPGQAPRTLVYDTSNKQSWTPARFSGSLLGGKAALTLSGAQPEDEAEYYCLLSYSGARPGIFGGGTKLTVL
# B4: BD56-1259 (protein)
# chain 1: QVQLQESGPGLVKPSQTLSLTCTVSGGSIRNEVYYWSWIRQPPGKGLEWIGYIHYSGNTYYNPSLKSRVAISVDTSKNQFSLKLNSVTAADTAVYYCARVDVGGRLVSTFDYWGQGTLVTVSS
# chain 2: NFMLTQPHSVSESPGMTVTISCTGSSGSIADNYVQWYQQRPGSAPTTVIYENNQRPSGVPDRFSGSIDSSSNSASLTISGLKTEDEADYYCQSYDNSNIAVFGGGTQLTVL
# B5: BD56-1249 (protein)
# chain 1: QVQLVQSGAEVKKPGSSVRVSCKASGGNLINYAASWVRQAPGQGLEWMGGIVPILDITNYAQKFQGRVTITADKSTDTAYMELSSLRSEDTAVYFCATGVQYCSGSRCNSAYFDSWGQGTLVTVSS
# chain 2: EIVLTQSPATLSLSPGERATLSCRASQSISSSHLAWYQQKPGQAPRLLIYGASSRATGIPDRFSGSGSGTDFTLTITRLAPEDFAVYYCQQYGSSPQRTFGQGTKVEIK
# B6: BD56-1250 (protein)
# chain 1: B5 chain 1 with N28T, A34L, Q62L, D77S, V93L, Q101R, S104D, R107T
# chain 2: B5 chain 2 with A9G, S28T, S32T, G58D, T77S, R78T
# B7: BD56-1248 (protein)
# chain 1: QVQLVQSGAEVKKPGASVKVSCKASGYMFTTYGISWVRQAPGQGLEWIGWISAYNGDTNYSHKVQDRVTMTTDTSSSTAYMELRSLRSDDTAVYYCARDFGEISGSENHDYWGQGTLVTVSS
# chain 2: EIVLTQSPATLSLSPGERATLSCRASQSVSIYLAWFQQKPGQAPRLLIYHASTRATGIPGRFSGSGSGTDFTLTISSLEPEDFAVYYCQHRSSWPFFGQGTRLEIK
# B8: BD56-1273 (protein)
# chain 1: QVQLVESGGGVVQPGRSLRLSCAASGFTFSDYAVHWVRQAPGKGLEWVAVISYDGISQYYADSVKGRFTISRDNSKNTLFLQMNSLSAEDTAVYYCARDPIITMVRGIIRTNWFDPWGQGTLVTVSS
# chain 2: SYELTQPPSVSVSPGQTASITCSGDRLGNKYVSWYQQKAGQSPVLVIYQNYRRPSGIPERFSGSNSGNTATLTISGTQALDEADYYCQAWRSANHVVFGGGTKLTVL
# B9: BD56-1234 (protein)
# chain 1: QVQLVESGGGVVQPGRSLRLSCAASGFTFRNYGIHWFRQAPGKGLEWVAIIWYDGSNKYYAASVKGRFTISRDNSQNTVYLQMNSLRAGDTAVYYCARGYSSHDILTGEEDAFDLWGQGTMVTVSS
# chain 2: QSVLTQPPSVSAAPGQKVTISCSGSRSNIGNHYVSWYQQLPGTAPKLLIYDNTERPSGIPDRFSASKSATSATLGITGLQTGDEADYYCGTWDTSLGAVVFGGGTKLTVL
# B10: BD56-1276 (protein)
# chain 1: QVQLVESGGGVVQPGRSLRLSCAASGFTFKTYAMHWVRQGSGKGLEWVAVISDDGSNKYYADSVKGRFSISRDNSKNTLYLQMNSLRTEDTAVYFCARDRDDSSGWFLDYWGQGTLVTASS
# chain 2: DIQMTQSPSALSASVGDRVSITCRASQGISNSLAWYQQKPGKAPKLLLYAAYRLESGVPSRFRGSGSGTDYTLTISSLQPEDFATYYCQQYYSMPPITFGQGTRLEIK
# B11: COV2-2504 (protein)
# chain 1: QVQLVQSGAEVKKPGASVKVSCKASGYTFTDYYMHWVRQAPGQGLEWMGWINPNSRGTNYAQKFQGRVTMTRDTSISTVYMELSRLTSDDTAVYYCARVVVLGYGRPNNYYDGRNVWDYWGQGTLVTVSS
# chain 2: not shown
# B12: BD56-1269 (protein)
# chain 1: EVQLVESGGGLVKPGGSLRLSCAASGFPFSTYGMNWVRQAPGKGLEWVSSITGGSSYISYADSVKGRFTISRDNAKNSLYLHMKSLRGDDTAVYYCARDKRAHDEYSSGWYDYYYYNGMDVWGQGTTVTVSS
# chain 2: QSVLTQPPSVSAAPGQKVTISCSGSSSNIGSNYVSWYQQLPGMAPKLLIYDDNKRPSVIPDRISGSKSGTSATLAITGLQTGDEADYYCGAWDSSLTAWVFGGGTKLTVL
# B13: BD56-1266 (protein)
# chain 1: QVQLVQSGADVKKPGSSVKVSCKASGGTFSSYSIVWVRQAPGQGLEWMGRIIPILDVANYAQMFQGRVTITADRSTNTAYLEVSSLRSEDTAVYYCARETGTTGAPWFIPWGQGTLVIVSS
# chain 2: QSVLTQPPSVSGAPGQRVTISCTGSDSNIGAGYDVHWYQKLPGTAPKLLIYGNNNRPSGVPDRFTGSKSDTSVSLAITGLQAEDEADYYCQSYDSGLIGVIFGGGTKLTVL
# Assays:
# Assay in all cases: pseudovirus neutralization IC50; higher = weaker neutralization
# [1] = target: SARS-CoV-2 Omicron BA.1 spike pseudovirus
# Protocol: (§1)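 Single-round VSV luciferase pseudovirus mixed with antibody dilutions for 1 h and put on Huh-7 cells for about a day; IC50 from the dose curve.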
# [2] = target: SARS-CoV-2 Omicron BA.2 spike pseudovirus
# Protocol: as §1
# [3] = target: SARS-CoV-2 Omicron BA.2.75 spike pseudovirus
# Protocol: as §1
# [4] = target: SARS-CoV-2 Omicron BA.5 spike pseudovirus
# Protocol: as §1
# [5] = target: SARS-CoV-2 Omicron BQ.1.1 spike pseudovirus
# Protocol: as §1
# [6] = target: SARS-CoV-2 Omicron XBB spike pseudovirus
# Protocol: as §1
# [7] = target: SARS-CoV-2 early D614G spike pseudovirus
# Protocol: as §1
Binder,pseudovirus neutralization IC50 [1] [µg/mL],pseudovirus neutralization IC50 [2] [µg/mL],pseudovirus neutralization IC50 [3] [µg/mL],pseudovirus neutralization IC50 [4] [µg/mL],pseudovirus neutralization IC50 [5] [µg/mL],pseudovirus neutralization IC50 [6] [µg/mL],pseudovirus neutralization IC50 [7] [µg/mL]
B1,> 10,> 10,> 10,> 10,> 10,> 10,1.75
B2,0.255,0.0907,0.157,> 10,> 10,1.65,0.0174
B3,> 10,> 10,> 10,> 10,> 10,> 10,1.1
B4,0.106,0.0096,0.00512,0.00705,0.00507,0.00673,0.0156
B5,0.00444,0.00117,0.00129,0.422,> 10,> 10,0.023
B6,0.0417,0.00158,0.00293,1.61,1.49,> 10,0.00512
B7,0.258,0.0785,0.288,> 10,> 10,> 10,0.201
B8,> 10,1.66,0.286,> 10,> 10,> 10,0.00224
B9,2.17,2.14,1.58,2.49,2.81,2.5,1.88
B10,> 10,> 10,> 10,> 10,> 10,> 10,> 10
B11,> 10,> 10,> 10,> 10,> 10,> 10,–
B12,0.108,0.0887,0.114,0.091,–,–,0.0281
B13,0.0762,0.0534,0.0503,> 10,> 10,1.01,0.0574
